Measured values from several laboratories, pooled; numbers as filed in NIAID ChemDB.

Common to all: whole-cell or culture tests; organism: Herpes simplex virus 1; cells: VERO; endpoint: EC50

Lines come from different laboratories, so protocols vary. ECn: concentration that inhibits the pathogen or its effect by n%.

SMILES,strain or isolate,method,value
COP(=O)(CC(=O)OC[C@H]1O[C@@H](n2cc(I)c(=O)[nH]c2=O)C[C@@H]1O)OC,BRAND,cytopathic effect,>0.6 µM
CO[C@H]1[C@@H](O)C[C@H](O[C@H]2[C@@H](O)C[C@H](O[C@H]3[C@@H](O)C[C@H](O[C@H]4CC[C@@]5(C)[C@H](CC[C@@H]6[C@@H]5CC[C@]5(C)[C@@H](C7=CC(=O)OC7)CC[C@]65O)C4)O[C@@H]3C)O[C@@H]2C)O[C@@H]1C,29R,plaque count,0.26 µM
O=c1[nH]c(=O)n([C@H]2C[C@H](O)[C@@H](CO)O2)cc1CCCl,BRAND,cytopathic effect,>0.03 µM
C[C@H]1O[C@@H](O[C@H]2CC[C@@]3(C)[C@H](CC[C@@H]4[C@@H]3CC[C@]3(C)[C@@H](C5=CC(=O)OC5)C(O)C[C@]43O)C2)C[C@H](O)[C@@H]1O[C@@H]1O[C@H](CO)[C@@H](O)[C@H](O)[C@H]1O,KOS,plaque count,0.83 µM
CCC1[C@H](OC2O[C@H](CO)[C@@H](O)[C@H](O)[C@H]2O)OC=C(C(=O)O)[C@H]1CC(=O)OCCc1ccc(O)cc1,15577,cytopathic effect,>250 µM
O=C(O)CP(=O)(O)O,BRAND,cytopathic effect,>71.4 µM
C[C@]12CC[C@H](O)C[C@H]1CC[C@@H]1[C@@H]2C[C@@H](O)[C@]2(C)[C@@H](C3=CC(=O)OC3)CC[C@]12O,29R,plaque count,3.56 µM
CCC(C)C(N)C(=O)O[C@H]1C[C@H](n2cc(/C=C/Br)c(=O)[nH]c2=O)O[C@@H]1COP1(=O)OCc2cccc(C)c2O1,KUPKA (TK+),plaque count,0.44 µg/mL
CO[C@H]1C[C@H](O[C@H]2[C@@H](O)C[C@H](O[C@H]3[C@@H](O)C[C@H](O[C@H]4CC[C@@]5(C)[C@H](CC[C@@H]6[C@@H]5CC[C@]5(C)[C@@H](C7=CC(=O)OC7)CC[C@]65O)C4)O[C@@H]3C)O[C@@H]2C)O[C@H](C)[C@H]1O,29R,plaque count,0.25 µM
CCOC(=O)P(=O)(OCCOCn1cnc2c(=O)[nH]c(N)nc21)OC(C)C,AVD,cytopathic effect,0.77 µM
Cc1cccc2c1OP(=O)(OC[C@H]1O[C@@H](n3cc(/C=C/Br)c(=O)[nH]c3=O)C[C@@H]1OC(=O)[C@H]1CCCN1)OC2,B2006 (TK-),plaque count,>128 µg/mL
CC(=O)O[C@H]1C[C@H](O[C@H]2[C@@H](O)C[C@H](O[C@H]3[C@@H](O)C[C@H](O[C@H]4CC[C@@]5(C)[C@H](CC[C@@H]6[C@@H]5CC[C@]5(C)[C@@H](C7=CC(=O)OC7)CC[C@]65O)C4)O[C@@H]3C)O[C@@H]2C)OC(C)[C@H]1O[C@@H]1O[C@H](CO)[C@@H](O)[C@H](O)[C@H]1O,29R,plaque count,0.39 µM
CC[C@H](C)[C@H](N)C(=O)O[C@H]1C[C@H](n2cc(/C=C/Br)c(=O)[nH]c2=O)O[C@@H]1COP1(=O)OCc2cccc(C)c2O1,KUPKA (TK+),plaque count,0.4 µg/mL
CC(=O)OCC(CCn1cnc2c(=O)[nH]c(N)nc21)COP1(=O)OCc2cccc(C)c2O1,KUPKA,cytopathic effect,111 µM
[N-]=[N+]=CC(=O)CC[C@H](N)C(=O)O,Clinical isolate,plaque count,7.9 µM
Cc1cccc2c1OP(=O)(OCCOCn1cnc3c(=O)[nH]c(N)nc31)OC2,KUPKA,cytopathic effect,0.47 µM
O=c1[nH]c(=O)n([C@H]2C[C@H](O)[C@@H](CO)O2)cc1I,BRAND,cytopathic effect,>0.3 µM
CC(C)C(=O)O[C@H]1C[C@H](n2cc(/C=C/Br)c(=O)[nH]c2=O)O[C@@H]1COP1(=O)OCc2ccccc2O1,B2006 (TK-),plaque count,>128 µg/mL
Cc1cn(CCC(CO)CO)c(=O)[nH]c1=O,KUPKA,cytopathic effect,>593 µM
O=c1[nH]c(=O)n([C@H]2C[C@H](O)[C@@H](COP3(=O)OCc4c(Cl)cccc4O3)O2)cc1/C=C/Br,KUPKA (TK+),plaque count,0.23 µg/mL
CCOC(=O)P(=O)(OC)OC[C@H]1O[C@@H](n2cc(I)c(=O)[nH]c2=O)C[C@@H]1O,BRAND,cytopathic effect,>0.6 µM
C[C@H]1O[C@@H](O[C@H]2CC[C@@]3(C)[C@H](CC[C@@H]4[C@@H]3CC[C@]3(C)[C@@H](C5=CC(=O)OC5)CC[C@]43O)C2)C[C@H](O)[C@@H]1O,29R,plaque count,0.11 µM
CCC(=O)O[C@H]1C[C@H](n2cc(/C=C/Br)c(=O)[nH]c2=O)O[C@@H]1COP1(=O)OCc2cccc(C)c2O1,B2006 (TK-),plaque count,>64 µg/mL
C/C=C1\[C@H](OC2O[C@H](CO)[C@@H](O)[C@H](O)[C@H]2O)OC=C(C(=O)O)[C@H]1CC(=O)OCCc1ccc(O)cc1,15577,cytopathic effect,>250 µM
Cc1cccc2c1OP(=O)(OCC(CO)CCn1cnc3c(=O)[nH]c(N)nc31)OC2,KUPKA,cytopathic effect,57.2 µM
O=C(CP(=O)(O)O)O[C@H]1C[C@H](n2cc(CCCl)c(=O)[nH]c2=O)O[C@@H]1CO,BRAND,cytopathic effect,>24.2 µM
CO[C@H]1C[C@H](O[C@H]2CC[C@]3(C=O)[C@H]4CC[C@]5(C)[C@@H](C6=CC(=O)OC6)CC[C@]5(O)[C@@H]4CC[C@]3(O)C2)O[C@H](C)[C@H]1O[C@@H]1O[C@H](CO[C@@H]2O[C@H](CO)[C@@H](O)[C@H](O)[C@H]2O)[C@@H](O)[C@H](O)[C@H]1O,KOS,plaque count,0.33 µM
Cc1cccc2c1OP(=O)(OC[C@H]1O[C@@H](n3cc(/C=C/Br)c(=O)[nH]c3=O)C[C@@H]1OC(=O)C(C)C)OC2,B2006 (TK-),plaque count,>128 µg/mL
Nc1nc2c(ncn2COCCOP2(=O)OCc3ccccc3O2)c(=O)[nH]1,KUPKA,cytopathic effect,1.02 µM
CC(=O)CCC(=O)O[C@H]1C[C@H](n2cc(/C=C/Br)c(=O)[nH]c2=O)O[C@@H]1COP1(=O)OCc2cccc(C)c2O1,B2006 (TK-),plaque count,>128 µg/mL
CC(=O)O[C@H]1[C@@H](O)C[C@H](O[C@H]2[C@@H](O)C[C@H](O[C@H]3[C@@H](O)C[C@H](O[C@H]4CC[C@@]5(C)[C@H](CC[C@@H]6[C@@H]5CC[C@]5(C)[C@@H](C7=CC(=O)OC7)CC[C@]65O)C4)O[C@@H]3C)O[C@@H]2C)O[C@@H]1C,29R,plaque count,0.34 µM

A second listing of 4 rows from above:

SMILES,strain or isolate,method,value
CC(=O)CCC(=O)O[C@H]1C[C@H](n2cc(/C=C/Br)c(=O)[nH]c2=O)O[C@@H]1COP1(=O)OCc2cccc(C)c2O1,B2006 (TK-),plaque count,>128 µg/mL
CC(=O)O[C@H]1[C@@H](O)C[C@H](O[C@H]2[C@@H](O)C[C@H](O[C@H]3[C@@H](O)C[C@H](O[C@H]4CC[C@@]5(C)[C@H](CC[C@@H]6[C@@H]5CC[C@]5(C)[C@@H](C7=CC(=O)OC7)CC[C@]65O)C4)O[C@@H]3C)O[C@@H]2C)O[C@@H]1C,29R,plaque count,0.34 µM
Cc1cccc2c1OP(=O)(OCC(CO)CCn1cnc3c(=O)[nH]c(N)nc31)OC2,KUPKA,cytopathic effect,57.2 µM
O=C(O)CP(=O)(O)O,BRAND,cytopathic effect,>71.4 µM